In patent US20240382586A1:

Target: SARS-CoV-2 spike, Omicron BA.1 variant (neutralisation assay) (SARS-CoV-2)
Experiment: cell-based or functional assay

Substance: Sotrovimab (antibody)
- % inhibition of Omicron BA.1 at 1 ug/ml: 61%
